Patent US20090029418

Target: HaeIII methylase (UniProt P20589)
Assay: activity in cells
Settings: genomic DNA resistant to StuI; GGm5CC; protein in cells; protein details: pLJhaeIIIM101-1 in E. coli ER1398; only the site is given

AGGCCT (double strand) [E. coli genomic DNA StuI site]
activity on this sequence: active
